Read-outs that look alike come from different tables or passages of the source.
B1: Apolipoprotein A-V (protein, UniProt Q8C7G5 21-368, looked up)
Apolipoprotein A-V: RKSLWDYFSQNSWSKGVMGQPQKLAQENLKGSFEQDLYNMNNYLEKLGPLRGPGKEPPLLAQDPEGIRKQLQQELGEVSSRLEPYMAAKHQQVGWNLEGLRQQLKPYTAELMEQVGLSVQELQEQLRVVGEDTKAQLLGGVDEALNLLQDMQSRVLHHTDRVKELFHPYAERLVTGIGHHVQELHRSVAPHAAASPARLSRCVQTLSHKLTRKAKDLHTSIQRNLDQLRDELSAFIRVSTDGAEDGDSLDPQALSEEVRQRLQAFRHDTYLQIAAFTQAIDQETEEIQHQLAPPPPSHSAFAPELGHSDSNKALSRLQSRLDDLWEDIAYGLQDQGHSHLSDPEGHSG
B2: Flavin reductase (NADPH) (protein, UniProt Q923D2 1-206, looked up)
Flavin reductase (NADPH): MTVKKIAIFGATGRTGLTTLAQAVQAGYEVTVLVRDSSRLPSEGPQPAHVVVGDVRQAADVDKTVAGQEAVIVLLGTGNDLSPTTVMSEGTRNIVTAMKAHGVDKVVACTSAFLLWDPTKVPPRLQDVTDDHIRMHKILQESGLKYVAVMPPHIGDQPLTGAYTVTLDGRGPSRVISKHDLGHFMLRCLTTNEYDGHTTYPSHQYD
B3: Ras-related protein Rab-8B (protein, UniProt P61028 1-204, looked up)
Ras-related protein Rab-8B: MAKTYDYLFKLLLIGDSGVGKTCLLFRFSEDAFNTTFISTIGIDFKIRTIELDGKKIKLQIWDTAGQERFRTITTAYYRGAMGIMLVYDITNEKSFDNIKNWIRNIEEHASSDVERMILGNKCDMNDKRQVSKERGEKLAIDYGIKFLETSAKSSTNVEEAFFTLARDIMTKLNRKMNDSNSSGAGGPVKITESRSKKTSFFRC
B4: Dual specificity protein phosphatase 3 (protein, UniProt Q9D7X3 1-185, looked up)
Dual specificity protein …: MSSSFELSVQDLNDLLSDGSGCYSLPSQPCNEVVPRVYVGNASVAQDITQLQKLGITHVLNAAEGRSFMHVNTSASFYEDSGITYLGIKANDTQEFNLSAYFERATDFIDQALAHKNGRVLVHCREGYSRSPTLVIAYLMMRQKMDVKSALSTVRQNREIGPNDGFLAQLCQLNDRLAKEGKVKL
B5: Serine protease inhibitor A3M (protein, UniProt Q03734 21-418, looked up)
Serine protease inhibitor A3M: FSDDTWGIDILLHKNQESGTPDDSLTLASINTDFAFSLYKKMALKNPDKNIVFSPLSISAALALVSLGAKGNTLEEILEGLKFNLTETSEADIHQGFGHLLQRLSQPEDQDQINIGNAMFIEKDLQILAEFHEKTRALYQTEAFTADFQQPTEATKLINDYVSNQTQGMIKKLISELDDRTLMVLVNYIYFKGKWKISFDPQDTFESEFYLDEKRSVKVPMMKMKFLTTRHFRDEELSCSVLELKYTGNASALFILPDQGRMQQVEASLQPETLRKWWKSLKTRKIGELYLPKFSISTDYNLKDILPELGIKEIFSKQADLSGITGTKDLSVSQVVHKAVLDVAETGTEAAAATGFIFGFRSRRLQTMTVQFNRPFLMVISHTGVQTTLFMAKVTNPK

Test system: coronal proteins on NPs
Design: species or system mouse
Settings: for V5 Sera_Nanoparticles Quantitative Value (Normalized Total Spectra): 20:1 NP:sera, centrifuged and washed; for V5 Sera Alone (Control) Quantitative Value (Normalized Total Spectra): IAV day 5 (V5) mouse sera alone
[1] = HBPE-NPs incubated with IAV day 5 (V5) mouse sera 1 h
[2] = no NPs, mass spectrometry protein identification

Molecule | V5 Sera_Nanoparticles Quantitative Value (Normalized Total Spectra) [1] | V5 Sera Alone (Control) Quantitative Value (Normalized Total Spectra) [2] | V5 Sera_Nanoparticles Quantitative Value (Normalized Total Spectra) (HBPE-NPs incubated 1 h with IAV day 5 (V5) mouse sera) | V5 Sera Alone (Control) Quantitative Value (Normalized Total Spectra) (no NPs (sera-only control))
B1 | 0 | 0.9252 | – | –
B2 | 0 | 0.9252 | – | –
B3 | 0 | 0.9252 | – | –
B4 | 0 | 0.9252 | – | –
B5 | – | – | 28.286 | 27.757

From patent US20240122867A1, “CORONAL PROTEIN-COATED NANOPARTICLES AND USES THEREOF” (UNIVERSITY OF CENTRAL FLORIDA RESEARCH FOUNDATION, INC., priority 2021, published 2024)
